Zika virus NS2B-NS3: effect of single substitutions on growth in cell culture

The measurements come from Ni et al. 2025 (doi:10.1038/s41467-025-63602-z).

Protein: NS2B and the protease part of NS3 of Zika virus strain MR766. Positions count along the chain below; NS2B spans 2-131 and NS3 starts at 132.
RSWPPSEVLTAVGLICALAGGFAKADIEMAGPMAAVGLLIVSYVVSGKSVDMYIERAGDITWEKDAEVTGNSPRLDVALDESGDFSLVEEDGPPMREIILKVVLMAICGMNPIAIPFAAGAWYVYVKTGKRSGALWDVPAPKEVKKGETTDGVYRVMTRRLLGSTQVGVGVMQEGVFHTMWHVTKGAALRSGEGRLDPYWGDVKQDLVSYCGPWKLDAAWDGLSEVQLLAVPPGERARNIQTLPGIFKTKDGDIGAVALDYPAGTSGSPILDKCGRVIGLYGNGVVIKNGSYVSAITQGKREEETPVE

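Mutant virus pools were grown in human Huh-7.5 cells. Sequencing of three replicate libraries (two for positions 207-308) was averaged into one effect per change. The aim was to find sites where inhibitor-binding pockets cannot change.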

Values are log2 effects on growth: 0 is wild type, lower means poorer growth.
Substitutions are written as wild-type residue, site number, new residue.
This list holds changes to tryptophan only.
The authors count -1 or higher as tolerated. Position 1 is the last residue of NS2A.
Six mutants with high scores were retested singly and none clearly outgrew wild type, so positive values are not proof of better growth.
Positions 1-103, 104-206 and 207-308 were made and measured as separate libraries.

A121W read -3.46.
Y123W read -1.65.
V124W read 0.22.
Y125W read -0.70.
V126W read -3.27.
K127W read -6.00.
T128W read -5.96.
G129W read -6.08.
K130W read -5.69.
R131W read -5.90.
S132W read -6.04.
G133W read -5.95.
A134W read -5.07.
L135W read -6.97.
D137W read -6.25.
V138W read -6.19.
P139W read -5.38.
A140W read -4.90.
P141W read -5.20.
K142W read -5.07.
E143W read -3.09.
V144W read -2.90.
K145W read -3.64.
K146W read -4.32.
G147W read -2.34.
E148W read -5.57.
T149W read -5.38.
T150W read -2.97.
D151W read -2.06.
G152W read -6.02.
V153W read -6.05.
Y154W read -5.57.
R155W read -6.06.
V156W read -6.29.
M157W read -0.56.
T158W read -4.83.
R159W read -4.88.
R160W read -0.95.
L161W read -5.01.
L162W read -4.09.
G163W read -5.66.
S164W read -4.09.
T165W read -0.42.
Q166W read -5.81.
V167W read -6.23.
G168W read -4.64.
V169W read -5.40.
G170W read -5.84.
V171W read -5.17.